PubChem BioAssay AID1259414 – Drosophila RNAi Screening Center, 2018
Test: 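Host factors increasing or decreasing Wolbachia levels in cultured fly cells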 (primary screen). Cells: Drosophila JW18 cells infected with Wolbachia. Knock-down reagent: long dsRNA against Drosophila genes, 0.25 µg dsRNA per well of a 384-well plate. Time to read-out: 5 days. Challenge: cells persistently infected with Wolbachia before knock-down; no added drug. Measured: 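Imaged fluorescence in situ signal for Wolbachia 23S rRNA per DAPI-counted host cell, given as a robust z-score within each plate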. Direction: Wolbachia per cell robust z: higher = more Wolbachia per host cell than the plate typical. Active means: 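Active if absolute robust z reaches 1.5 in two or more of three replicates, leaving out multi- or no-target dsRNAs, genes unexpressed in JW18 and A1 wells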.
In all, the deposit lists about 24,000 reagents; shown is an unselected part of those that have a named target and a result. Over the whole deposit, about 1,210 (5%) were called active. 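Inactive calls also include excluded dsRNAs with several or no targets, genes unexpressed in JW18, and well A1, regardless of score.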 Unmarked entries are inactive. No sequences are given here.

target | DRSC id | Wolbachia per cell robust z, rep 1 | Wolbachia per cell robust z, rep 2 | Wolbachia per cell robust z, rep 3
CG13807 (GeneID 38290) | DRSC08342 | -0.527 | -0.821 | -0.834
CG13807 (GeneID 38290) | DRSC28816 | 0.724 | -0.973 | 1.08
Lectin-galC1 (GeneID 35216) | DRSC03362 | 0.677 | 0.779 | 0.844
roh (GeneID 246602) | DRSC04003 | -0.339 | -0.211 | 0.0227
dally (GeneID 39013) | DRSC08954 | 0.392 | -0.549 | 0.286
dally (GeneID 39013) | DRSC11338 | 0.219 | -0.687 | 0.373
Snx6 (GeneID 34126) | DRSC03081 | 0.252 | -0.244 | 0.133
Snx6 (GeneID 34126) | DRSC29702 | 0.968 | 1.38 | 0.839
Ccm3 (GeneID 41876) | DRSC15711 | 0.428 (active) | -7.93 | -6.3
CG8319 (GeneID 41165) | DRSC16407 | 0.642 | -2.27 | 0.908
CG8319 (GeneID 41165) | DRSC24607 | 1.09 | 0.934 | -0.24
Dus4 (GeneID 35179) | DRSC02066 | -0.512 | -0.756 | -0.605
Myd88 (GeneID 35956) | DRSC06815 | 0.527 | -0.778 | -0.708
Myd88 (GeneID 35956) | DRSC28830 | 0.87 | -0.198 | -0.282
Myd88 (GeneID 35956) | DRSC39025 | 1.47 | 1.03 | 1.8
Rop (GeneID 38493) | DRSC08693 | 5.74 (active) | 5.05 | 7.9
Rop (GeneID 38493) | DRSC26024 | 5.35 (active) | 3.99 | 8.14
CG32452 (GeneID 318035) | DRSC11581 | -0.361 | -0.657 | 0.135
CG32452 (GeneID 318035) | DRSC22250 | 0.667 | -0.974 | -0.883
CG32452 (GeneID 318035) | DRSC26705 | -0.522 | -0.026 | 0.685
CG43736 (GeneID 3771905) | DRSC18370 | -0.735 (active) | -7.12 | -4.24
CG43736 (GeneID 3771905) | DRSC18371 | 0.0172 | 0.329 | -0.433
CG43736 (GeneID 3771905) | DRSC27351 | -0.663 | -0.176 | 0.376
CG43736 (GeneID 3771905) | DRSC39100 | -0.457 | -2.51 | 0.021
Ir64a (GeneID 38616) | DRSC09759 | 0.214 | -0.642 | -0.613
Ir64a (GeneID 38616) | DRSC09760 | -0.723 | -0.0237 | -4.8
Prx2 (GeneID 53578) | DRSC20256 | 1.39 | 0.869 | 1.23
Prx2 (GeneID 53578) | DRSC29996 | 0.691 | 0.525 | 0.483
CG10459 (GeneID 36000) | DRSC05991 | -1.13 | -0.36 | -0.495
CG10459 (GeneID 36000) | DRSC22092 | 0.3 | -0.328 | -0.72
Ugt303B3 (GeneID 42774) | DRSC14199 | 0.9 | -1.59 | 0.972
Ugt303B3 (GeneID 42774) | DRSC26386 | 1.09 | 0.132 | -0.569
Ugt303B3 (GeneID 42774) | DRSC39073 | -1.99 | -0.116 | 0.37
CG32639 (GeneID 318134) | DRSC18972 | -0.171 | -1.19 | -9.67

Part of the list above, reduced to “Wolbachia per cell robust z, rep 1”:
Dus4 (GeneID 35179) [DRSC02066]	-0.512
Myd88 (GeneID 35956) [DRSC06815]	0.527
Myd88 (GeneID 35956) [DRSC28830]	0.87
Myd88 (GeneID 35956) [DRSC39025]	1.47
Rop (GeneID 38493) [DRSC08693]	5.74 (active)

More reagents follow.
target | DRSC id | Wolbachia per cell robust z, rep 1 | Wolbachia per cell robust z, rep 2 | Wolbachia per cell robust z, rep 3
Dbp80 (GeneID 3354919) | DRSC22034 | 0.219 | 0.152 | 1.25
Hap40 (GeneID 32507) | DRSC20085 | -3.72 | 1.06 | -0.655
Hap40 (GeneID 32507) | DRSC26124 | -0.101 | -0.877 | -0.929
tant (GeneID 44785) | DRSC11401 | 0.814 | -2.95 | 0.673
CG33096 (GeneID 326251) | DRSC14440 | 0.414 | -0.0187 | -2.42
CG33096 (GeneID 326251) | DRSC25968 | 0.338 | 0.481 | 0.338
Alg-2 (GeneID 3355106) | DRSC07799 | -3.85 | 0.366 | -1.45
Alg-2 (GeneID 3355106) | DRSC41455 | -0.427 | -0.55 | -1.96
Dhit (GeneID 37037) | DRSC07411 | -0.214 | -0.674 | -1.78
Dhit (GeneID 37037) | DRSC25629 | -0.391 | -0.289 | 0.843
Muc68Ca (GeneID 2768980) | DRSC10312 | 0.823 | -1.35 | -0.568
Muc68Ca (GeneID 2768980) | DRSC10313 | 0.537 | 0.0276 | 0.897
CG11951 (GeneID 43463) | DRSC14442 | -0.045 | -0.383 | -0.479
CG11951 (GeneID 43463) | DRSC25645 | 0.894 | -0.0604 | -0.465
CG6938 (GeneID 39362) | DRSC10752 | 0.674 | 1.19 | 0.5
CG6938 (GeneID 39362) | DRSC28621 | 0.305 | 1.27 | 0.993
Wee1 (GeneID 33965) | DRSC03635 | 0.511 | -0.768 | 0.92
Wee1 (GeneID 33965) | DRSC23318 | 0.598 | -0.349 | -0.16
Nup54 (GeneID 36360) | DRSC07282 | 0.281 | 0.574 | 0.214
CG8042 (GeneID 38886) | DRSC09676 | -6.99 (active) | -4.75 | 0.437
CG8042 (GeneID 38886) | DRSC24712 | 0.978 | 0.882 | -0.431
CG33298 (GeneID 2768929) | DRSC02210 | -0.367 | -0.403 | -0.467
CG33298 (GeneID 2768929) | DRSC02672 | 0.736 | 0.883 | 0.315
CG9449 (GeneID 40117) | DRSC11073 | -0.676 | 0.948 | 0.851
CG9449 (GeneID 40117) | DRSC25691 | 0.572 | 0.0587 | 1.96
CG9449 (GeneID 40117) | DRSC41606 | 1.8 | 0.463 | -0.813
CG14692 (GeneID 41298) | DRSC14915 | 0.801 | -0.587 | 0.0637
thw (GeneID 40868) | DRSC12552 | 0.657 | -0.427 | -0.964
alpha-Est10 (GeneID 40896) | DRSC12613 | 0.334 | 0.749 | 0.922
alpha-Est10 (GeneID 40896) | DRSC25456 | -0.624 | -0.283 | 0.0577
CG15155 (GeneID 35087) | DRSC02456 | -3.63 | -1.52 | -1.42
RabX5 (GeneID 38209) | DRSC08608 | -1.53 | -0.136 | -0.567
RabX5 (GeneID 38209) | DRSC28950 | 1.73 | 0.373 | 0.405
PyK (GeneID 42620) | DRSC16806 | -1.33 | -0.15 | -0.186
PyK (GeneID 42620) | DRSC27033 | -0.0171 | -0.169 | 0.923
